{"source": "patent EP0621339B1", "about": "(TAKARA SHUZO CO. LTD., dated 2001)", "molecular_target": "HA molecule (haemagglutinin) of A/Suita/1/89 (H1N1) (influenza A virus, H1N1 subtype, strain A/Suita/1/89)", "experiment": "cell-based or functional assay"}
{"substance": "monoclonal antibody C179", "values": [{"measurement": "HI (hemagglutination inhibition titer) (fold dilution of the ascites fluid)", "value": "< 32"}]}
